Results from US8664201B2 (priority 2008, dated 2014).

Tests used:
[1] = system: B16 Melanoma; test: s.c. B16 melanoma; type: in vivo, mice
[2] = system: Lewis Lung Carcinoma; test: Lewis lung carcinoma, s.c. implant, IP treatment; type: in vivo, mice
[3] = dosage 30 (mg mg^-1), Day 2 Q5 min × 7
[4] = dosage 200 (mg mg^-1), Day 2 single dose
[5] = 30 mg/kg/dose IP, Day 2 Q5 min × 7
[6] = 200 mg/kg/dose IP, Day 2 single dose

SMILES: NP(=O)(O)N(CCCl)CCCl
- % ILS [1, 3]: 17%
- T-C [1, 3]: 6.1 days
- % ILS [1, 4]: 15%
- T-C [1, 4]: 4.9 days
- % ILS [2, 5]: 17%
- Log kill total [2, 5]: 1.5
- T-C (tumor growth delay) [2, 5]: 6.1 days
- % ILS [2, 6]: 15%
- Log kill total [2, 6]: 1.2
- T-C (tumor growth delay) [2, 6]: 4.9 days
